Compound potency records, mixed from different reports. Data source: NIAID ChemDB in PubChem.

Shared fields: enzyme or target tests; agent: HIV-1; target: Protease

ICn is the concentration giving n% inhibition.

structure,read-out,method,dose,value
COC(=O)[C@H](CC(C)C)N1C[C@@H]2O[C@H](C1=O)[C@H](C(=O)N1CCN(CCc3ccccc3)CC1)O2,inhibition,FRET,10 µM,0%
CC(C)(CCCCNC(=O)C1CC1)CN(C[C@@H](O)[C@H](Cc1ccccc1)NC(=O)O[C@H]1CO[C@H]2OCC[C@H]21)S(=O)(=O)c1ccc2c(c1)OCO2,Ki,fluorescence,,<0.001 µM
O=C(CCCCCC(=O)N[C@@H](Cc1ccccc1)C(=O)OCc1ccccc1)N[C@@H](Cc1ccccc1)C(=O)OCc1ccccc1,inhibition,absorbance,10 µM,<10%
O=C(NC1CC1)[C@@H]1O[C@@H]2CN(Cc3ccccc3)C(=O)[C@H]1O2,inhibition,FRET,10 µM,0%
CCC(CC)NC(=O)[C@@H]1CCCN1C(=O)[C@@H](O)[C@H](Cc1ccccc1)NC(=O)[C@H](CC(N)=O)NC(=O)OCc1ccccc1,IC50,,,<5 µM
CN=C(NC#N)NCCC(C)(C)CN(C[C@@H](O)[C@H](Cc1ccccc1)NC(=O)O[C@H]1CO[C@H]2OCC[C@H]21)S(=O)(=O)c1ccc2c(c1)OCO2,Ki,fluorescence,,<0.001 µM
O=C([C@@H]1O[C@]2(c3ccccc3)CN(C(c3ccccc3)c3ccccc3)C(=O)[C@H]1O2)N1CCCC1,inhibition,FRET,10 µM,0%
CC(C)(CCOC(=O)Oc1ccc([N+](=O)[O-])cc1)CN(C[C@@H](O)[C@H](Cc1ccccc1)NC(=O)O[C@H]1CO[C@H]2OCC[C@H]21)S(=O)(=O)c1ccc2c(c1)OCO2,Ki,fluorescence,,<0.001 µM
COc1ccc(C[C@H](NC(=O)C(=O)N[C@@H](Cc2ccc(OC)cc2)C(=O)OCC(C)C)C(=O)OCC(C)C)cc1,inhibition,absorbance,10 µM,<10%
CC[C@H](C)[C@H](NC(=O)[C@@H]1CCCN1C(=O)[C@H](O)[C@H](Cc1ccccc1)NC(=O)[C@H](CO)NC(=O)Cc1ccccc1)C(=O)N[C@H](C(N)=O)C(C)C,inhibition,,5 µM,57.2%
CCCOC(=O)NCCCC(C)(C)CN(C[C@@H](O)[C@H](Cc1ccccc1)NC(=O)O[C@H]1CO[C@H]2OCC[C@H]21)S(=O)(=O)c1ccc2c(c1)OCO2,Ki,fluorescence,,<0.001 µM
CC(C)(C)NC(=O)[C@@H]1CCCN1C(=O)[C@@H](O)[C@H](Cc1ccccc1)NC(=O)[C@H](CS(C)(=O)=O)NC(=O)CNc1cccc2ccccc12,inhibition,,0.05 µM,55.4%
CC(C)(CCCNC(=O)c1ccc(F)cc1)CN(C[C@@H](O)[C@H](Cc1ccccc1)NC(=O)O[C@H]1CO[C@H]2OCC[C@H]21)S(=O)(=O)c1ccc2c(c1)OCO2,Ki,fluorescence,,<0.001 µM
CC(C)C[C@H](NC(=O)[C@@H]1CCCN1C(=O)[C@@H](O)[C@H](Cc1ccccc1)NC(=O)[C@H](CC(N)=O)NC(=O)CCc1ccccc1)C(=O)N[C@H](C(N)=O)C(C)C,inhibition,,5 µM,51.8%
CC(C)COC(=O)[C@H](Cc1ccccc1)NC(=O)/C=C/C(=O)N[C@@H](Cc1ccccc1)C(=O)OCC(C)C,inhibition,absorbance,10 µM,<10%
CC[C@H](C)[C@H](NC(=O)[C@@H]1CCCN1C(=O)[C@@H](O)[C@H](Cc1ccccc1)NC(=O)[C@H](CO)NC(=O)Cc1ccccc1)C(=O)N[C@H](C(N)=O)C(C)C,inhibition,,1000 µM,72.3%
CN(C)C(=O)OCCC(C)(C)CN(C[C@@H](O)[C@H](Cc1ccccc1)NC(=O)O[C@H]1CO[C@H]2OCC[C@H]21)S(=O)(=O)c1ccc2c(c1)OCO2,Ki,fluorescence,,<0.001 µM
CC(C)COC(=O)C(Cc1cccc2ccccc12)NC(=O)C(=O)NC(Cc1cccc2ccccc12)C(=O)OCC(C)C,inhibition,absorbance,10 µM,19%
NC(=O)C[C@H](NC(=O)OCc1ccccc1)C(=O)N[C@@H](Cc1ccccc1)[C@H](O)C(=O)N1CCC[C@H]1C(=O)N1CC1,inhibition,,5 µM,>90%
CC(C)COC(=O)[C@H](Cc1ccc([N+](=O)[O-])cc1)NC(=O)C(=O)N[C@@H](Cc1ccc([N+](=O)[O-])cc1)C(=O)OCC(C)C,inhibition,absorbance,10 µM,49%
COc1ccc(S(=O)(=O)N(C[C@@H](O)[C@H](Cc2ccccc2)NC(=O)OC(C)(C)C)CC(C)(C)CCCN=[N+]=[N-])cc1,Ki,fluorescence,,<0.001 µM
CCOC(=O)C1CCN(C(=O)[C@@H]2O[C@@H]3CN(Cc4ccccc4)C(=S)[C@H]2O3)CC1,inhibition,FRET,10 µM,0%
CC(C)COC(=O)[C@H](Cc1ccccc1)NC(=O)C(N)C(=O)N[C@@H](Cc1ccccc1)C(=O)OCC(C)C,inhibition,absorbance,10 µM,<10%
CCOC(=O)NCCCC(C)(C)CN(C[C@@H](O)[C@H](Cc1ccccc1)NC(=O)O[C@H]1CO[C@H]2OCC[C@H]21)S(=O)(=O)c1cccc(N)c1,Ki,fluorescence,,<0.001 µM

An empty or dashed field is not shown. Percent inhibition refers to the dose given; in toxicity tests it is the harm to the cells. Rows are shuffled and stem from different studies.